# Values quoted from earlier work as cited in US9867795B2, “Nitrated lipids and methods of making and using thereof” (The UAB Research Foundation, priority 2004, dated 2018).
# Settings: human blood; literature refs 35, 36; cited from earlier work
substance,measurement,value
nitrosothiols [RSNO],Concentration in plasma,7.2 ± 1.1 nM
